Data published in patent EP4831293A1, “BIOSYNTHETIC GENE CLUSTER FOR POLYENE MACROLIDE NATURAL PRODUCT MANDIMYCIN, AND NATURAL PRODUCT AND USE THEREOF” (dated 2026).

Assays:
Candida tropicalis = assay: Drug resistance test on agar plates with 8x MIC; details: 8× MIC agar plates, 30°C, 2 days
Description: (§1) Different Candida species and other fungi were cultured overnight in YPD broth with shaking (200 rpm, 30°C) for 16 h. A fungal suspension having a concentration of approximately 10^10 CFU/mL was prepared, and 0.1 mL aliquot of the suspension was spread onto YPD agar plates containing 8× MIC concentrations of mandimycin, amphotericin B, nystatin, or natamycin. The inoculated plates were incubated at 30°C for 2 days to identify resistant colonies. A number of colonies growing in the presence of the antifungal agents was calculated. […] In contrast, amphotericin B produced an average of 6 resistant Candida auris colonies, 5 resistant Candida albicans colonies, 12 resistant Cryptococcus neoformans colonies, 560 resistant Candida tropicalis colonies, and 5 resistant Candida parapsilosis colonies per agar plate. Nystatin produced an average of 2 resistant Candida auris colonies, 24 resistant Candida albicans colonies, 3 resistant Cryptococcus neoformans colonies, 55 resistant Candida tropicalis colonies, 2 resistant Candida parapsilosis colonies, and 23 resistant Candida glabrata colonies per agar plate. Natamycin produced an average of 13 resistant Candida auris colonies, 4 resistant Candida albicans colonies, 34 resistant Cryptococcus neoformans colonies, 40 resistant Candida tropicalis colonies, 8 resistant Candida parapsilosis colonies, and 5 resistant Candida glabrata colonies per agar plate.

Candida albicans = assay: Drug resistance test on agar plates with 8x MIC; details: 8× MIC agar plates, 30°C, 2 days
Description: as §1

Cryptococcus neoformans = assay: Drug resistance test on agar plates with 8x MIC; details: 8× MIC agar plates, 30°C, 2 days
Description: as §1

Candida glabrata = assay: Drug resistance test on agar plates with 8x MIC; details: 8× MIC agar plates, 30°C, 2 days
Description: as §1

Candida parapsilosis = assay: Drug resistance test on agar plates with 8x MIC; details: 8× MIC agar plates, 30°C, 2 days
Description: as §1

Candida auris = assay: Drug resistance test on agar plates with 8x MIC; details: 8× MIC agar plates, 30°C, 2 days
Description: as §1

[1] = system: Candida albicans BNCC 186382; assay: Mouse model of invasive candidiasis (survival); details: 10 mg/kg once daily for four days, monitored 20 days
Description: Specific pathogen-free female ICR mice (Hangzhou Medical College, China), aged 6 weeks and weighing 23-27 g, were used. The mice were randomly housed, with six mice per cage, and were acclimated for three days prior to the experiment. To induce immunosuppression, the mice received intraperitoneal injections of cyclophosphamide (200 mg/kg) and subcutaneous injections of cortisone acetate (500 mg/kg) on Day -2 and Day +3, respectively. To prevent cross-infection, the mice received enrofloxacin in drinking water at a concentration of 50 µg/mL from Day 1 to Day 3, followed by subcutaneous injection of ceftazidime (200 µg/kg) from Day 0 to Day 9. Invasive candidiasis was induced by intravenous injection of 1 × 10^6 CFU of Candida albicans BNCC 186382. Treatment was initiated 16 h after infection, including subcutaneous injection of mandimycin (formulated in 10% DMSO and 10% Tween 80) at doses of 1 mg/kg, 5 mg/kg, 10 mg/kg, and 20 mg/kg once daily for four consecutive days, together with amphotericin B at a dose of 10 mg/kg. The mice were monitored for a total of 20 days. Survival curves were plotted using GraphPad Prism 9. When mandimycin was administered at a dose of 10 mg/kg, a survival rate of mice reached 100%.

C[C@@H]1C/C=C/C=C/C=C/C=C/[C@H](O[C@@H]2O[C@H](C)[C@@H](O)[C@H](N)[C@@H]2O)C[C@@H]2O[C@](O)(C[C@@H](O)C[C@H]3O[C@@H]3/C=C/C(=O)O1)C[C@H](O)[C@H]2C(=O)O
resistant Candida tropicalis colonies per agar plate (average) (Candida tropicalis): 40 colonies per agar plate | resistant Candida albicans colonies per agar plate (average) (Candida albicans): 4 colonies per agar plate | resistant Cryptococcus neoformans colonies per agar plate (average) (Cryptococcus neoformans): 34 colonies per agar plate | resistant Candida glabrata colonies per agar plate (average) (Candida glabrata): 5 colonies per agar plate | resistant Candida parapsilosis colonies per agar plate (average) (Candida parapsilosis): 8 colonies per agar plate | resistant Candida auris colonies per agar plate (average) (Candida auris): 13 colonies per agar plate

amphotericin B
resistant Candida tropicalis colonies per agar plate (average) (Candida tropicalis): 560 colonies per agar plate | resistant Candida albicans colonies per agar plate (average) (Candida albicans): 5 colonies per agar plate | resistant Cryptococcus neoformans colonies per agar plate (average) (Cryptococcus neoformans): 12 colonies per agar plate | resistant Candida parapsilosis colonies per agar plate (average) (Candida parapsilosis): 5 colonies per agar plate | resistant Candida auris colonies per agar plate (average) (Candida auris): 6 colonies per agar plate | survival rate of mice [1]: 80%

nystatin
resistant Candida tropicalis colonies per agar plate (average) (Candida tropicalis): 55 colonies per agar plate | resistant Candida albicans colonies per agar plate (average) (Candida albicans): 24 colonies per agar plate | resistant Cryptococcus neoformans colonies per agar plate (average) (Cryptococcus neoformans): 3 colonies per agar plate | resistant Candida glabrata colonies per agar plate (average) (Candida glabrata): 23 colonies per agar plate | resistant Candida parapsilosis colonies per agar plate (average) (Candida parapsilosis): 2 colonies per agar plate | resistant Candida auris colonies per agar plate (average) (Candida auris): 2 colonies per agar plate
